Data as given in PubChem BioAssay AID504761 (Drosophila RNAi Screening Center, 2011).

Screen: 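Insect host genes that dengue virus relies on to spread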 (primary screen)
System: D.Mel-2 cells from Drosophila
Reagent: long dsRNA against Drosophila genes
Treatment: infection with dengue virus type 2; dose and infection time not stated
Measured: 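Cells stained for dengue envelope protein and imaged; percent of infected cells per well on duplicate plates, ranked by infection, with stained nuclei counted for cell number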
Scale: infection score: higher = more virus-infected cells; cell count: higher = more cells in the well
Rule for the call: 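Very low infection ranking in both replicate wells (chance probability at most 0.065), then a retest showing infection dropped 1.5-fold or more at p below 0.05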
Calls: active = confirmed: knock-down lowers infection; inactive = not picked or not confirmed
The deposit covers about 22,000 reagents; this is an unselected part of those that have a named target and a result. In the full data, 116 (0.52%) are marked active. 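Calls depend on retest data that are not deposited; infection was ranked per plate without normalising between plates; the unit of the infection score is not given.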 The raw values are shown without normalisation. A number with no mark means an inactive call. A plus sign joins genes that one reagent is predicted to hit. No sequences are given here. Not given: the amount of reagent, the time to read-out.

gene,amplicon,"infection score, replicate 1","infection score, replicate 2","cell count, replicate 1","cell count, replicate 2"
CG13137,DRSC02234,5.27,4.41,6780,6736
CG1632,DRSC17558,0.72,0.06,6713,6459
CG1632,DRSC18110,5.75,12.6,6396,6766
CG14929 + CG4970 + CG14930,DRSC02412,7.73,8.13,6517,6324
Uggt,DRSC11315,22.3,5.14,4655,6633
Taz,DRSC07704,1.11 (active),1.67,6694,7008
Taz,DRSC22625,23.5,20.1,4692,3000
Taz,DRSC27100,11.5,6.4,6806,7092
CG7573,DRSC10884,0.47,3.88,6231,5928
Dph2,DRSC16222,16.6,9.54,6381,6606
Dph2,DRSC26401,3.1,2.36,6680,5599
CG1368,DRSC19537,14.2,12.7,6036,1394
CG1368,DRSC25431,6.98,15.1,5962,5546
SerRS-m,DRSC14096,4.72,4.59,5461,5534
vkg,DRSC03632,1.42,0.64,6064,6519
kraken,DRSC00824,2.7,4.08,6820,6550
kraken,DRSC28163,10.5,11.9,6609,6781
CG8813,DRSC00706,7.22,4.89,6484,6752
CG6788 + CR32496,DRSC22043,7.04,6.42,6123,6046
Taf12L,DRSC00467,4.79,4.78,6641,6656
Cda5,DRSC00529,0.73,6.22,6679,6724
Cda5,DRSC00532,0.96,7.7,6637,6522
Cda5,DRSC21330,0.39,5.9,6711,7318
SC35,DRSC03425,5.45,5.59,5502,5777
SC35,DRSC25427,0.91,7.86,6034,5486
SC35,DRSC27081,3.7,6.2,6517,7290
CG32432,DRSC11744,4.67,6.7,6599,6507
CR14499 (retired record),DRSC06470,13.3,5.63,5471,6628
PIG-N,DRSC06837,13,9.12,5901,6719
CG13992,DRSC02324,2.63,9.23,6276,5896
CG3739,DRSC15510,0.52,4.19,6563,6135
Tep3,DRSC03452,5.66,6.2,6574,6403
CG30109 + CG30108,DRSC05674,2.07,1.89,5887,5514
Smg5,DRSC03124,27.8,15.2,4205,4630
Smg5,DRSC27834,12.6,13.7,3325,4080
danr,DRSC14651,3.55,8.99,6792,5970
danr,DRSC27029,2.8,9.58,6826,6295
CG43338,DRSC23362,1.39,3.41,6891,7145
Ubc84D,DRSC12610,4.09,13,6700,5728
Ubc84D,DRSC25384,8.12,2.13,5862,6140
CG32984,DRSC21602,0.46,10.8,5610,5594
CG32984,DRSC29257,13,23.2,3906,5972
CG2875,DRSC18231,12,4.2,6105,6359
cysu,DRSC15902,5.64,1.44,5120,6124
cysu,DRSC28838,13.7,12.5,5142,4489
PPYR1,DRSC19612,12.5,7.86,6204,6670
PPYR1,DRSC27134,16.7,5.96,6202,6256
CG2698,DRSC15447,6.7,16.9,6672,2286
Jhbp12,DRSC14621,3.19,13.4,6794,5751
cGlr2,DRSC04017,0.78,1.14,5650,5631
CG1324,DRSC20496,4.49,2.83,6030,5579
CG1324,DRSC25582,7.2,4.97,6219,5759
Ddc,DRSC03314,20.1,4.02,5489,6547
FarO,DRSC18475,20.8,0.71,3307,6511
CG5687,DRSC08568,6.59,20.4,6283,5433
Mybbp1A,DRSC18788,6.43,9.87,6379,6993
CG9663,DRSC00724,7.94,4.47,6398,6667
Pop2,DRSC10537,4.85,2.78,2063,2519
Pop2,DRSC27971,4.3,3.64,4167,4260

Reprinted from the listing for reference:
gene,amplicon,"infection score, replicate 1","infection score, replicate 2","cell count, replicate 1","cell count, replicate 2"
Taz,DRSC22625,23.5,20.1,4692,3000
Taz,DRSC27100,11.5,6.4,6806,7092
CG7573,DRSC10884,0.47,3.88,6231,5928
Dph2,DRSC16222,16.6,9.54,6381,6606
Dph2,DRSC26401,3.1,2.36,6680,5599
CG1368,DRSC19537,14.2,12.7,6036,1394
CG1368,DRSC25431,6.98,15.1,5962,5546
SerRS-m,DRSC14096,4.72,4.59,5461,5534
